Experimental data taken from publication PMC8021898 (Frontiers in Pharmacology, 2021).

Tested on: Vero E6 cells
Settings: African green monkey

Compound: NC(N)=Nc1nc(CSCCC(N)=NS(N)(=O)=O)cs1 [Famotidine]
- Cytotoxicity: CC10: > 100 µM
